Measured values reported in article PMC5404198.

System: Nc1ncnc2c1ncn2[C@@H]1O[C@H](COP(=O)(O)OP(=O)(O)OP(=O)(O)O)[C@@H](O)[C@H]1O
Experiment: purified protein
Settings: ATPase activity; steady-state hyperbolic kinetics; pH and temperature of the kinetic assay not given

LotP (CLIBASIA_03135; His6X-LotP) (Candidatus Liberibacter asiaticus str. psy62)
Km: 133.98 µM
